This series addresses influenza A polymerase acidic protein (PA), full length, N-terminal 3x FLAG tag, P03433. To be noted: AUC.

B1: influenza A polymerase basic protein 1 (PB1), full length, untagged (protein)
chain: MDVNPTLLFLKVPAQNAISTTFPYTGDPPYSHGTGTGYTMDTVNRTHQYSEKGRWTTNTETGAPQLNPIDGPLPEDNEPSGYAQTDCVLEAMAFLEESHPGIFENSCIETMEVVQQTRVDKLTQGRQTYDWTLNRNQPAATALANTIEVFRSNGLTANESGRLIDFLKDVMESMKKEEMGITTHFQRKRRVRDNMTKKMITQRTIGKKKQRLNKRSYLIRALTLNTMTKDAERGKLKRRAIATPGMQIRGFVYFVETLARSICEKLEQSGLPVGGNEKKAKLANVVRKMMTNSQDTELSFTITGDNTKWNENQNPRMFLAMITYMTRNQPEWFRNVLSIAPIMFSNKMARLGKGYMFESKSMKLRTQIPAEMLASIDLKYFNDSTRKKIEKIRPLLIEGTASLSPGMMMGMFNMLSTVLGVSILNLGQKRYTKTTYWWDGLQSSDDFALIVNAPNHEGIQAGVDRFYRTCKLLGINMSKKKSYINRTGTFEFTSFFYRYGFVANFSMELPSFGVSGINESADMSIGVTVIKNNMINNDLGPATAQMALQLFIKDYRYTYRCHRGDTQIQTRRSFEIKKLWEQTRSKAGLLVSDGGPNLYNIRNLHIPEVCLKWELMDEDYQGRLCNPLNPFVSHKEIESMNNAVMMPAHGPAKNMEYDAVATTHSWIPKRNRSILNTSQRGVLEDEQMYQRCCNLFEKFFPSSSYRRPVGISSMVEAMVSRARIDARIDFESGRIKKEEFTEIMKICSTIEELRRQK
As for B1, the percent heterodimer entry is on record as “the PA/PB1 exists primarily as a heterodimer of 174 kD (81%”.

These data come from PMC5557545, “Biochemical characterization of recombinant influenza A polymerase heterotrimer complex: Endonuclease activity and evaluation of inhibitors” (PLoS ONE, 2017).
